Pooled drug test results. Numbers come from NIAID ChemDB, via PubChem.

Shared fields: tests in culture; species: Herpes simplex virus 2; measure: EC50

ECn is the concentration giving n% inhibition of infection, replication or growth. An empty or dashed field is not shown. Lines come from different laboratories, so protocols vary.

structure	strain	cells	read by	result
O=c1[nH]c(=O)n([C@@H]2O[C@H](CO)[C@@H](O)[C@@H]2O)cc1/C=C/I	MS	HELF	plaque count	4.3 µg/mL
O=c1[nH]c(=O)n([C@H]2C[C@H](O)[C@@H](CO)O2)cc1/C=C/Br	333	HELA BU	plaque count	<10 µM
O=c1[nH]c(=O)n([C@H]2C[C@H](O)[C@@H](CO)O2)cc1/C=C/Br	G	Primary rabbit kidney cells	cytopathic effect	2 µg/mL
Nc1ccn(C[C@@H](CO)OCP(=O)(O)O)c(=O)n1	SR	HFF	plaque count	2.1 µg/mL
Cc1cn([C@@H]2O[C@H](CO)[C@H]2CO)c(=O)[nH]c1=O	JEN	HFF	plaque count	0.5 µg/mL
CC1(C)OCC2(CO[C@H](n3ccc(NC(=O)c4ccccc4)nc3=O)C2)O1		CCL18		>100 µM
CC(=O)OC[C@H]1[C@H](COC(C)=O)[C@@H](COC(C)=O)O[C@H]1n1cnc2c(N)ncnc21	MS	MEF	plaque count	223 µM
CC1(C)OCC(CO)(CC(O)CO)O1		CCL18		>100 µM
Nc1nc2c(ncn2CCC(CO)CO)c(=O)[nH]1	186 (TK-)	MRC-5	plaque count	230 µg/mL
Nc1ccn([C@H]2C[C@](O)(CO)CO2)c(=O)n1		CCL18		>100 µM
COc1ccc2nc3n[nH]c(C)c3c(Cl)c2c1		FS-85	plaque count	0.9 µg/mL
O=C(NCc1ccc(Cl)cc1)c1cn2c3c(cc(CN4CCOCC4)cc3c1=O)OC(c1cccnc1)C2	X-79 (WILD TYPE)	HFF	plaque count	>13.2 µM
O=C(Nc1ccn([C@@H]2CC(O)(CO)CO2)c(=O)n1)c1ccccc1		CCL18		>100 µM
Nc1nc2c(ncn2CC[C@H](O)CO)c(=O)[nH]1	91075 (acyclovir-resistant)	VERO	plaque count	>250 µM
Nc1nc2c(ncn2COCCO)c(=O)[nH]1	14893 KOS (acyclovir-resistant)	HFF	cytopathic effect	20 µg/mL
Nc1ncnc2c1ncn2[C@@H]1O[C@H](COP(=O)(O)O)[C@@H](O)[C@@H]1O	X-79	MEF	plaque count	29 µM
Nc1nc2c(ncn2CCCCO)c(=O)[nH]1	91075	SIRC	plaque count	1.5 µM
Nc1nc2c(ncn2COCCO)c(=O)[nH]1	MS	WI-38	cytopathic effect	0.31 µg/mL
CCCc1cn([C@H]2C[C@H](O)[C@@H](CO)O2)c(=O)[nH]c1=O	333	HELA BU	plaque count	<10 µM
O=c1[nH]c(=O)n([C@@H]2O[C@H](COP(=O)(O)O)[C@@H](O)[C@@H]2O)cc1/C=C/Br	MS	HELF	plaque count	15 µg/mL
O=C(Nc1ccn([C@H]2C[C@](O)(CO)CO2)c(=O)n1)c1ccccc1		CCL18		>100 µM
Cc1cn([C@@H]2O[C@H](CO)[C@@H](O)[C@@H]2O)c(=O)[nH]c1=O	MS	HELF	cytopathic effect	0.66 µg/mL
Nc1nc2c(ncn2COCCO)c(=O)[nH]1	UW-268	HELF	plaque count	0.051 µg/mL
Nc1nc2c(ncn2CC(CO)CCO)c(=O)[nH]1	91075	SIRC	plaque count	2.7 µM
Cc1cn([C@@H]2O[C@H](CO)[C@@H](O)[C@@H]2F)c(=O)[nH]c1=O	HG-52	HELF	plaque count	0.007 µg/mL
Cn1cc(C(=O)NCc2ccc(Cl)cc2)c(=O)c2cc(CN3CCOCC3)ccc21	G (WILD TYPE)	HFF	plaque count	7.5 µM
Cc1cn([C@@H]2C[C@](O)(CO)CO2)c(=O)[nH]c1=O		CCL18		>100 µM
Nc1nc2c(ncn2C/C=C\CO)c(=O)[nH]1	91075 (acyclovir-resistant)	VERO	plaque count	≥250 µM
CC1(C)OCC2(CO[C@H](n3ccc(=O)[nH]c3=O)C2)O1		CCL18		>100 µM
O=C(O)CP(=O)(O)O	E-326	MEF	plaque count	12.9 µg/mL

Again, the opening 4 rows:

O=c1[nH]c(=O)n([C@@H]2O[C@H](CO)[C@@H](O)[C@@H]2O)cc1/C=C/I ; strain: MS ; cells: HELF ; read by: plaque count ; result: 4.3 µg/mL
O=c1[nH]c(=O)n([C@H]2C[C@H](O)[C@@H](CO)O2)cc1/C=C/Br ; strain: 333 ; cells: HELA BU ; read by: plaque count ; result: <10 µM
O=c1[nH]c(=O)n([C@H]2C[C@H](O)[C@@H](CO)O2)cc1/C=C/Br ; strain: G ; cells: Primary rabbit kidney cells ; read by: cytopathic effect ; result: 2 µg/mL
Nc1ccn(C[C@@H](CO)OCP(=O)(O)O)c(=O)n1 ; strain: SR ; cells: HFF ; read by: plaque count ; result: 2.1 µg/mL